From patent US6596723B1, “Fungal efflux pump inhibitors” (Essential Therapeutics, Inc., priority 2001, dated 2003)

Legend:
[1] = tested on: Candida albicans YEM15 (over-expressing the CDR1 and CDR2 pumps); assay type: cell-based; settings: strain YEM15; concentration of efflux pump inhibitor necessary to reduce the fluconazole MIC 8-fold
[2] = tested on: C. glabrata YEM19 (over-expressing the CgCDR1 and CgCDR2 pumps); assay type: cell-based, Candida glabrata; settings: strain YEM19; efflux pump inhibitor concentration reducing fluconazole MIC 8-fold

SMILES | MPC8 [1] | MPC8 [2] [µg/mL]
COc1ccc(NC(=O)N(c2ccc(OC)cc2OC)C(C)c2nc3ccccc3c(=O)n2N2CCN(C)CC2)cc1 (stereo not shown) [Compound 15, 1-(2,4-Dimethoxy-phenyl)-3-(4-methoxy-phenyl)-1-{1-[3-(4-methyl-piperazin-1-yl)-4-oxo-3,4-dihydro-quinazolin-2-yl]-ethyl}-urea] | 16 µg/mL | 2
COc1ccc(N(C(=O)Nc2ccc(C)cc2)C(C)c2nc3ccccc3c(=O)n2N2CCN(C)CC2)c(OC)c1 (stereo not shown) [Compound 14, 1-(2,4-Dimethoxy-phenyl)-1-{1-[3-(4-methyl-piperazin-1-yl)-4-oxo-3,4-dihydro-quinazolin-2-yl]-ethyl}-3-p-tolyl-urea] | 2 µg/mL | 2
COc1ccc(N(C(=O)Nc2ccccc2Cl)C(C)c2nc3ccccc3c(=O)n2N2CCN(C)CC2)c(OC)c1 (stereo not shown) [Compound 6, 3-(2-Chloro-phenyl)-1-(2,4-dimethoxy-phenyl)-1-{1-[3-(4-methyl-piperazin-1-yl)-4-oxo-3,4-dihydro-quinazolin-2-yl]-ethyl}-urea] | 4 µg/mL | 2
COc1ccc(N(C(C)c2nc3ccccc3c(=O)n2N2CCN(C)CC2)S(=O)(=O)c2ccccc2Cl)c(OC)c1 (stereo not shown) [Compound 16, 2-Chloro-N-(2,4-dimethoxy-phenyl)-N-{1-[3-(4-methyl-piperazin-1-yl)-4-oxo-3,4-dihydro-quinazolin-2-yl]-ethyl}-benzenesulfonamide] | 32 µg/mL | –
COc1cc(N(C(=O)Nc2cccc(Cl)c2)C(C)c2nc3ccccc3c(=O)n2N2CCN(C)CC2)cc(OC)c1OC (stereo not shown) [Compound 33, 3-(3-Chloro-phenyl)-1-{1-[3-(4-methyl-piperazin-1-yl)-4-oxo-3,4-dihydro-quinazolin-2-yl]-ethyl}-1-(3,4,5-trimethoxy-phenyl)-urea] | 8 µg/mL | –
COc1ccc(N(C(=O)Oc2ccccc2Cl)C(C)c2nc3ccccc3c(=O)n2N2CCN(C)CC2)c(OC)c1 (stereo not shown) [Compound 36, (2,4-Dimethoxy-phenyl)-{1-[3-(4-methyl-piperazin-1-yl)-4-oxo-3,4-dihydro-quinazolin-2-yl]-ethyl}-carbamic acid 2-chloro-phenyl ester] | 16 µg/mL | –
COc1ccc(N(C(=O)Nc2cccc(Cl)c2)C(C)c2nc3ccccc3c(=O)n2C2CCN(C)CC2)c(OC)c1 (stereo not shown) [Compound 22, 3-(3-Chloro-phenyl)-1-(2,4-dimethoxy-phenyl)-1-{1-[3-(1-methyl-piperidin-4-yl)-4-oxo-3,4-dihydro-quinazolin-2-yl]-ethyl}-urea] | 16 µg/mL | 32
COc1ccc(N(C(=O)Oc2ccc(Cl)cc2)C(C)c2nc3ccc(Cl)cc3c(=O)n2N2CCN(C)CC2)c(OC)c1 (stereo not shown) [Compound 35, {1-[6-Chloro-3-(4-methyl-piperazin-1-yl)-4-oxo-3,4-dihydro-quinazolin-2-yl]-ethyl}-(2,4-dimethoxy-phenyl)-carbamic acid 4-chloro-phenyl ester] | 4 µg/mL | 8
COc1ccc(N(C(=O)NC(C)C)C(C)c2nc3ccc(Cl)cc3c(=O)n2N2CCN(C)CC2)c(OC)c1 (stereo not shown) [Compound 32, 1-{1-[6-Chloro-3-(4-methyl-piperazin-1-yl)-4-oxo-3,4-dihydro-quinazolin-2-yl]-ethyl}-1-(2,4-dimethoxy-phenyl)-3-isopropyl-urea] | 4 µg/mL | –
COc1ccc(N(C(=O)Nc2cccc(Cl)c2)C(C)c2nc3ccccc3c(=O)n2N2CCN(C)CC2)c(C)c1 (stereo not shown) [Compound 5, 3-(3-Chloro-phenyl)-1-(4-methoxy-2-methyl-phenyl)-1-{1-[3-(4-methyl-piperazin-1-yl)-4-oxo-3,4-dihydro-quinazolin-2-yl]-ethyl}-urea] | 4 µg/mL | –
COc1ccc(N(C(=O)Nc2cccc(F)c2)C(C)c2nc3ccccc3c(=O)n2N2CCN(C)CC2)c(OC)c1 (stereo not shown) [Compound 21, 1-(2,4-Dimethoxy-phenyl)-3-(3-fluoro-phenyl)-1-{1-[3-(4-methyl-piperazin-1-yl)-4-oxo-3,4-dihydro-quinazolin-2-yl)-ethyl}-urea] | 0.25 µg/mL | 2
COc1ccc(N(C(=O)Nc2cccc(Cl)c2)C(C)c2nc3ccccc3c(=O)n2N2CCN(CCO)CC2)c(OC)c1 (stereo not shown) [Compound 3, 3-(3-Chloro-phenyl)-1-(2,4-dimethoxy-phenyl)-1-(1-{3-[4-(2-hydroxy-ethyl)-piperazin-1-yl]-4-oxo-3,4-dihydro-quinazolin-2-yl}-ethyl)-urea] | 0.03 µg/mL | 1
COc1ccc(N(C(=O)Nc2cccc(Cl)c2)C(C)c2nc3ccc(Cl)cc3c(=O)n2N2CCN(C)CC2)c(OC)c1 (stereo not shown) [Compound 23, 1-{1-[6-Chloro-3-(4-methyl-piperazin-1-yl)-4-oxo-3,4-dihydro-quinazolin-2-yl)-ethyl}-3-(3-chloro-phenyl)-1-(2,4-dimethoxy-phenyl)-urea] | 0.25 µg/mL | 2
COc1ccc(N(C(=O)Nc2ccc(Cl)cc2)C(C)c2nc3ccc(Cl)cc3c(=O)n2CCNC(C)=N)c(OC)c1 (stereo not shown) [Compound 43, N-[2-(6-Chloro-2-{1-[3-(4-chloro-phenyl)-1-(2,4-dimethoxy-phenyl)-ureido]-ethyl}-4-oxo-4H-quinazolin-3-yl)-ethyl]-acetamidine] | 4 µg/mL | 1
COc1ccc(N(C(=O)Nc2cccc(Cl)c2)C(C)c2nc3ccccc3c(=O)n2N2CCN(CCOC(C)=O)CC2)c(OC)c1 (stereo not shown) [Compound 2, Acetic acid 2-[4-(2-{1-[3-(3-chloro-phenyl)-1-(2,4-dimethoxy-phenyl)-ureido]-ethyl}-4-oxo-4H-quinazolin-3-yl)-piperazin-1-yl]-ethylester] | <0.5 µg/mL | 2
COc1ccc(N(C(=O)c2ccc(C)cc2)C(C)c2nc3ccccc3c(=O)n2N2CCN(C)CC2)c(OC)c1 (stereo not shown) [Compound 26, N-(2,4-Dimethoxy-phenyl)4-methyl-N-{1-[3-(4-methyl-piperazin-1-yl)-4-oxo-3,4-dihydro-quinazolin-2-yl)-ethyl}-benzamide] | 4 µg/mL | –
COc1ccc(N(C(=O)c2ccccc2Cl)C(C)c2nc3ccccc3c(=O)n2N2CCN(C)CC2)c(OC)c1 (stereo not shown) [Compound 29, 2-Chloro-N-(2,4-dimethoxy-phenyl)-N-{1-[3-(4-methyl-piperazin-1-yl)-4-oxo-3,4-dihydro-quinazolin-2-yl)-ethyl}-benzamide] | 4 µg/mL | –
COc1ccc(N(C(=O)Nc2ccccc2)C(C)c2nc3ccc(Cl)cc3c(=O)n2CCN2C(=O)c3ccccc3C2=O)c(OC)c1 (stereo not shown) [Compound 39, 1-(1-{6-Chloro-3-[2-(1,3-dioxo-1,3-dihydro-isoindol-2-yl)-ethyl]-4-oxo-3,4-dihydro-quinazolin-2-yl}-ethyl)-1-(2,4-dimethoxy-phenyl)-3-phenyl-urea] | ≦0.03 μg/ml | –
COc1ccc(N(C(=O)Nc2ccccc2OC)C(C)c2nc3ccccc3c(=O)n2N2CCN(C)CC2)c(OC)c1 (stereo not shown) [Compound 9, 1-(2,4-Dimethoxy-phenyl)-3-(2-methoxy-phenyl)-1-{1-[3-(4-methyl-piperazin-1-yl)-4-oxo-3,4-dihydro-quinazolin-2-yl]-ethyl}-urea] | 16 µg/mL | –
COc1ccc(N(C(=O)c2cccc(Cl)c2)C(C)c2nc3ccccc3c(=O)n2N2CCN(C)CC2)c(OC)c1 (stereo not shown) [Compound 27, 3-Chloro-N-(2,4-dimethoxy-phenyl)-N-{1-[3-(4-methyl-piperazin-1-yl)-4-oxo-3,4-dihydro-quinazolin-2-yl)-ethyl}-benzamide] | 8 µg/mL | –
COc1ccc(N(C(=O)c2ccc(Cl)cc2)C(C)c2nc3ccccc3c(=O)n2N2CCN(C)CC2)c(OC)c1 (stereo not shown) [Compound 28, 4-Chloro-N-(2,4-dimethoxy-phenyl)-N-{1-[3-(4-methyl-piperazin-1-yl)-4-oxo-3,4-dihydro-quinazolin-2-yl)-ethyl}-benzamide] | 4 µg/mL | –
COc1ccc(C(=O)N(c2ccc(OC)cc2OC)C(C)c2nc3ccccc3c(=O)n2N2CCN(C)CC2)cc1 (stereo not shown) [Compound 30, N-(2,4-Dimethoxy-phenyl)-4-methoxy-N-{1-[3-(4-methyl-piperazin-1-yl)-4-oxo-3,4-dihydro-quinazolin-2-yl]-ethyl}-benzamide] | 16 µg/mL | –
COc1ccc(NC(=O)N(c2ccc3c(c2)OCO3)C(C)c2nc3ccccc3c(=O)n2N2CCN(C)CC2)cc1 (stereo not shown) [Compound 34, 1-Benzo[1,3]dioxol-5-yl-3-(4-methoxy-phenyl)-1-{1-[3-(4-methyl-piperazin-1-yl)-4-oxo-3,4-dihydro-quinazolin-2-yl]-ethyl}-urea] | 8 µg/mL | –
COc1ccc(N(C(=O)Oc2ccccc2)C(C)c2nc3ccccc3c(=O)n2N2CCN(C)CC2)c(OC)c1 (stereo not shown) [Compound 11, (2,4-Dimethoxy-phenyl)-{1-[3-(4-methyl-piperazin-1-yl)-4-oxo-3,4-dihydro-quinazolin-2-yl]-ethyl}-carbamic acid phenyl ester] | – | 32
COc1ccc(N(C(=O)Nc2ccc(Cl)cc2)C(C)c2nc3ccccc3c(=O)n2N2CCN(C)CC2)c(OC)c1 (stereo not shown) [Compound 7, 3-(4-Chloro-phenyl)-1-(2,4-dimethoxy-phenyl)-1-{1-[3-(4-methyl-piperazin-1-yl)-4-oxo-3,4-dihydro-quinazolin-2-yl]-ethyl}-urea] | 1 µg/mL | –
COc1ccc(N(C(C)c2nc3ccccc3c(=O)n2N2CCN(C)CC2)S(=O)(=O)c2ccc(Cl)cc2)c(OC)c1 (stereo not shown) [Compound 10, 4-Chloro-N-(2,4-dimethoxy-phenyl)-N-{1-[3-(4-methyl-piperazin-1-yl)-4-oxo-3,4-dihydro-quinazolin-2-yl]-ethyl}-benzenesulfonamide] | 32 µg/mL | –
COc1ccc(OC(=O)N(c2ccc(OC)cc2OC)C(C)c2nc3ccccc3c(=O)n2N2CCN(C)CC2)cc1 (stereo not shown) [Compound 37, (2,4-Dimethoxy-phenyl)-{1-[3-(4-methyl-piperazin-1-yl)-4-oxo-3,4-dihydro-quinazolin-2-yl]-ethyl}-carbamc acid 4-methoxy-phenyl ester] | 32 µg/mL | –
